Laboratory results published in patent US20240109955A1.

Assays:
Test in all cases: cell-based or functional assay
[1] = biological target: SARS-CoV-2 spike protein, Omicron sublineage BA.4/5 (SARS-CoV-2), P0DTC2
[2] = biological target: SARS-CoV-2 spike protein, Omicron sublineage BQ.1.1 (SARS-CoV-2), P0DTC2
[3] = biological target: SARS-CoV-2 spike protein, Omicron sublineage BF.7 (SARS-CoV-2), P0DTC2

B1: MX1043 (bispecific antibody)
chain: EIVLTQSPGTLSLSPGETATLSCRASQSFSSDLAWYQQKPGQAPRLLIYGASSRATGIPDRFSGSGSGTDFTLTISRLEPADFAVYYCQQYGSSPPVTFGGGTKVEIKGGSSGQTVVTQEPSFSVSPGGTVTLTCGLSSGSVSTAYFPSWYQQTPGQAPRTLIYGTNTRSSGVPDRFSGSILGNKAALTITGAQADDESDYYCVLYMGRGIVVFGGGTKLTVLGGGGSGGSGSGGGGSASGSGQVQLVESGGGVVQPGRSLRLSCAASGFTLSSYGMHWVRQAPGKGLEWVAVISYDGSNKYYVDSVKGRFTISRDNSKNTLYLQMNSLRAEDTAVYYCRWAYWELLPDYYYGMDVWGQGTTVTVSSGGSSGEVQLVESGGGLIQPGGSLRLSCAASGVIVSYNYMNWVRQAPGKGLEWVSVIYSGGSTFYADSVRGRFTISRDNSKNTLYLQMNSLRAEDTAVYYCARDLGPAGAFDIWGLGTMVTVSSASGGSGDKTHTCPPCPAPELLGGPSVFLFPPKPKDTLMISRTPEVTCVVVDVSHEDPEVKFNWYVDGVEVHNAKTKPREEQYNSYVVSVLTVLHQDWLNGKEYKCKVSNKALPAPIEKTISKAKGQPREPQVYTLPPSRDELTKNQVSLTCLVKGFYPSDIAVEWESNGQPENNYKTTPPVLDSDGSFFKKLTVDKSRWQQGNVFSCSVLHEALHSHYTQKSLSLSPG
B1 gave an IC50 (pseudovirus neutralization) [1] of 3.74 nM, an IC80 (pseudovirus neutralization) [1] of 10.7 nM and an IC50 (pseudovirus neutralization) [2] of 2.35 nM. The IC80 (pseudovirus neutralization) [2] was 12.3 nM, the IC50 (pseudovirus neutralization) [3] was 56.9 nM and the IC80 (pseudovirus neutralization) [3] was 134 nM.

B2: MX1042 (bispecific antibody)
chain: DTVMTQSPLSLPVTPGEPASISCRSSQSLLNSNGYNYLDWYVQKPGQSPQLLIYLGSNRASGVPDRFSGSGSGTDFTLKISRVEAEDVGVYYCMQPLQTPLFTFGPGTKVEIKGGSSGEIVLTQSPGTLSLSPGETATLSCRASQSFSSDLAWYQQKPGQAPRLLIYGASSRATGIPDRFSGSGSGTDFTLTISRLEPADFAVYYCQQYGSSPPVTFGGGTKVEIKGGGGSGGSGSGGGGSASGSGEVQLVESGGGLIQPGGSLRLSCAASGVIVSYNYMNWVRQAPGKGLEWVSVIYSGGSTFYADSVRGRFTISRDNSKNTLYLQMNSLRAEDTAVYYCARDLGPAGAFDIWGLGTMVTVSSGGSSGQVTLRESGPALVKPTQTLTLTCTFSGFSLSTRGVCVSWIRQPPGKALEWLAFIDWDDDKYYNTSLKTRLTISKDTSKNQVVLTMTNVHPVDTATYYCARISSHHGSSWCTTFDYWGQGALVTVSAASGGSGDKTHTCPPCPAPELLGGPSVFLFPPKPKDTLMISRTPEVTCVVVDVSHEDPEVKFNWYVDGVEVHNAKTKPREEQYNSYVVSVLTVLHQDWLNGKEYKCKVSNKALPAPIEKTISKAKGQPREPQVYTLPPSRDELTKNQVSLTCLVKGFYPSDIAVEWESNGQPENNYKTTPPVLDSDGSFFKKLTVDKSRWQQGNVFSCSVLHEALHSHYTQKSLSLSPG
B2 showed an IC50 (pseudovirus neutralization) [1] of 1.37 nM, an IC80 (pseudovirus neutralization) [1] of 2.75 nM and an IC50 (pseudovirus neutralization) [2] of 0.29 nM. For the same binder, the IC80 (pseudovirus neutralization) [2] was 3.5 nM, the IC50 (pseudovirus neutralization) [3] was 19.3 nM and the IC80 (pseudovirus neutralization) [3] was 30.8 nM.

B3: MX1069 (protein)
chain 1: QTVVTQEPSFSVSPGGTVTLTCGLSSGSVSTAYFPSWYQQTPGQAPRTLIYGTNTRSSGVPDRFSGSILGNKAALTITGAQADDESDYYCVLYMGRGIVVFGGGTKLTVLGGSSGEIVLTQSPGTLSLSPGETATLSCRASQSFSSDLAWYQQKPGQAPRLLIYGASSRATGIPDRFSGSGSGTDFTLTISRLEPADFAVYYCQQYGSSPPVTFGGGTKVEIKGGGGSGGSGSGGGGSASGSGEVQLVESGGGLIQPGGSLRLSCAASGVIVSYNYMNWVRQAPGKGLEWVSVIYSGGSTFYADSVRGRFTISRDNSKNTLYLQMNSLRAEDTAVYYCARDLGPAGAFDIWGLGTMVTVSSGGSSGQVQLVESGGGVVQPGRSLRLSCAASGFTLSSYGMHWVRQAPGKGLEWVAVISYDGSNKYYVDSVKGRFTISRDNSKNTLYLQMNSLRAEDTAVYYCRWAYWELLPDYYYGMDVWGQGTTVTVSSASGGSGDKTHTCPPCPAPELLGGPSVFLFPPKPKDTLMISRTPEVTCVVVDVSHEDPEVKFNWYVDGVEVHNAKTKPREEQYNSYVVSVLTVLHQDWLNGKEYKCKVSNKALPAPIEKTISKAKGQPREPQVYTLPPCRDELTKNQVSLWCLVKGFYPSDIAVEWESNGQPENNYKTTPPVLDSDGSFFKKLTVDKSRWQQGNVFSCSVLHEALHSHYTQKSLSLSPG
chain 2: EIVLTQSPGTLSLSPGETATLSCRASQSFSSDLAWYQQKPGQAPRLLIYGASSRATGIPDRFSGSGSGTDFTLTISRLEPADFAVYYCQQYGSSPPVTFGGGTKVEIKGGSSGDTVMTQSPLSLPVTPGEPASISCRSSQSLLNSNGYNYLDWYVQKPGQSPQLLIYLGSNRASGVPDRFSGSGSGTDFTLKISRVEAEDVGVYYCMQPLQTPLFTFGPGTKVEIKGGGGSGGSGSGGGGSASGSGQVTLRESGPALVKPTQTLTLTCTFSGFSLSTRGVCVSWIRQPPGKALEWLAFIDWDDDKYYNTSLKTRLTISKDTSKNQVVLTMTNVHPVDTATYYCARISSHHGSSWCTTFDYWGQGALVTVSAGGSSGEVQLVESGGGLIQPGGSLRLSCAASGVIVSYNYMNWVRQAPGKGLEWVSVIYSGGSTFYADSVRGRFTISRDNSKNTLYLQMNSLRAEDTAVYYCARDLGPAGAFDIWGLGTMVTVSSASGGSGDKTHTCPPCPAPELLGGPSVFLFPPKPKDTLMISRTPEVTCVVVDVSHEDPEVKFNWYVDGVEVHNAKTKPREEQYNSYVVSVLTVLHQDWLNGKEYKCKVSNKALPAPIEKTISKAKGQPREPQVCTLPPSRDELTKNQVSLSCAVKGFYPSDIAVEWESNGQPENNYKTTPPVLDSDGSFFLVSKLTVDKSRWQQGNVFSCSVLHEALHSHYTQKSLSLSPG
In the case of B3, the IC50 (pseudovirus neutralization) [1] is reported as 1.47 nM, the IC80 (pseudovirus neutralization) [1] is reported as 2.44 nM and the IC50 (pseudovirus neutralization) [2] is reported as 1.89 nM. It also gave an IC80 (pseudovirus neutralization) [2] of 6.5 nM, an IC50 (pseudovirus neutralization) [3] of 12.5 nM and an IC80 (pseudovirus neutralization) [3] of 29 nM.

B4: MX1055 (protein)
chain 1: EIVMTQSPAILSVSPGERATLSCRASQSVAINLAWYQQKPGQAPRLLIYAASSRATGIPGRFSGSGSETNFTLTISSLQSGDFAVYYCQQYITWPPSYTFGQGTKLEIKGGSSGDTVMTQSPLSLPVTPGEPASISCRSSQSLLNSNGYNYLDWYVQKPGQSPQLLIYLGSNRASGVPDRFSGSGSGTDFTLKISRVEAEDVGVYYCMQPLQTPLFTFGPGTKVEIKGGGGSGGSGSGGGGSASGSGQVTLRESGPALVKPTQTLTLTCTFSGFSLSTRGVCVSWIRQPPGKALEWLAFIDWDDDKYYNTSLKTRLTISKDTSKNQVVLTMTNVHPVDTATYYCARISSHHGSSWCTTFDYWGQGALVTVSAGGSSGEVQLVESGGALIQPGGSLRLSCAASGIIVSANYMSWVRQAPGKGLEWVSVIYSGGSTFYADSVKGRFTISRDNSKNTLYLEMNSLRAEDTAVYYCARDAPILGVSDWGQGTLVTVSSASGGSGDKTHTCPPCPAPELLGGPSVFLFPPKPKDTLMISRTPEVTCVVVDVSHEDPEVKFNWYVDGVEVHNAKTKPREEQYNSYVVSVLTVLHQDWLNGKEYKCKVSNKALPAPIEKTISKAKGQPREPQVYTLPPCRDELTKNQVSLWCLVKGFYPSDIAVEWESNGQPENNYKTTPPVLDSDGSFFKKLTVDKSRWQQGNVFSCSVLHEALHSHYTQKSLSLSPG
chain 2: DTVMTQSPLSLPVTPGEPASISCRSSQSLLNSNGYNYLDWYVQKPGQSPQLLIYLGSNRASGVPDRFSGSGSGTDFTLKISRVEAEDVGVYYCMQPLQTPLFTFGPGTKVEIKGGSSGQTVVTQEPSFSVSPGGTVTLTCGLSSGSVSTAYFPSWYQQTPGQAPRTLIYGTNTRSSGVPDRFSGSILGNKAALTITGAQADDESDYYCVLYMGRGIVVFGGGTKLTVLGGGGSGGSGSGGGGSASGSGQVQLVESGGGVVQPGRSLRLSCAASGFTLSSYGMHWVRQAPGKGLEWVAVISYDGSNKYYVDSVKGRFTISRDNSKNTLYLQMNSLRAEDTAVYYCRWAYWELLPDYYYGMDVWGQGTTVTVSSGGSSGQVTLRESGPALVKPTQTLTLTCTFSGFSLSTRGVCVSWIRQPPGKALEWLAFIDWDDDKYYNTSLKTRLTISKDTSKNQVVLTMTNVHPVDTATYYCARISSHHGSSWCTTFDYWGQGALVTVSAASGGSGDKTHTCPPCPAPELLGGPSVFLFPPKPKDTLMISRTPEVTCVVVDVSHEDPEVKFNWYVDGVEVHNAKTKPREEQYNSYVVSVLTVLHQDWLNGKEYKCKVSNKALPAPIEKTISKAKGQPREPQVCTLPPSRDELTKNQVSLSCAVKGFYPSDIAVEWESNGQPENNYKTTPPVLDSDGSFFLVSKLTVDKSRWQQGNVFSCSVLHEALHSHYTQKSLSLSPG
In the case of B4, the IC50 (pseudovirus neutralization) [1] is reported as 1.3 nM, the IC80 (pseudovirus neutralization) [1] is reported as 3.32 nM and the IC50 (pseudovirus neutralization) [2] is reported as 0.12 nM. The IC80 (pseudovirus neutralization) [2] was 3.41 nM, the IC50 (pseudovirus neutralization) [3] was 16.2 nM and the IC80 (pseudovirus neutralization) [3] was 28.2 nM.
